Reference: ChEMBL document CHEMBL2401726, “Expanding chemical diversity of conotoxins: peptoid-peptide chimeras of the sodium channel blocker μ-KIIIA and its selenopeptide analogues” (2013)
pKd: −log10 of the molar value.

Chains of the proteins cited; added tags and fusions are not shown.
UniProt P04775, whole entry, looked up: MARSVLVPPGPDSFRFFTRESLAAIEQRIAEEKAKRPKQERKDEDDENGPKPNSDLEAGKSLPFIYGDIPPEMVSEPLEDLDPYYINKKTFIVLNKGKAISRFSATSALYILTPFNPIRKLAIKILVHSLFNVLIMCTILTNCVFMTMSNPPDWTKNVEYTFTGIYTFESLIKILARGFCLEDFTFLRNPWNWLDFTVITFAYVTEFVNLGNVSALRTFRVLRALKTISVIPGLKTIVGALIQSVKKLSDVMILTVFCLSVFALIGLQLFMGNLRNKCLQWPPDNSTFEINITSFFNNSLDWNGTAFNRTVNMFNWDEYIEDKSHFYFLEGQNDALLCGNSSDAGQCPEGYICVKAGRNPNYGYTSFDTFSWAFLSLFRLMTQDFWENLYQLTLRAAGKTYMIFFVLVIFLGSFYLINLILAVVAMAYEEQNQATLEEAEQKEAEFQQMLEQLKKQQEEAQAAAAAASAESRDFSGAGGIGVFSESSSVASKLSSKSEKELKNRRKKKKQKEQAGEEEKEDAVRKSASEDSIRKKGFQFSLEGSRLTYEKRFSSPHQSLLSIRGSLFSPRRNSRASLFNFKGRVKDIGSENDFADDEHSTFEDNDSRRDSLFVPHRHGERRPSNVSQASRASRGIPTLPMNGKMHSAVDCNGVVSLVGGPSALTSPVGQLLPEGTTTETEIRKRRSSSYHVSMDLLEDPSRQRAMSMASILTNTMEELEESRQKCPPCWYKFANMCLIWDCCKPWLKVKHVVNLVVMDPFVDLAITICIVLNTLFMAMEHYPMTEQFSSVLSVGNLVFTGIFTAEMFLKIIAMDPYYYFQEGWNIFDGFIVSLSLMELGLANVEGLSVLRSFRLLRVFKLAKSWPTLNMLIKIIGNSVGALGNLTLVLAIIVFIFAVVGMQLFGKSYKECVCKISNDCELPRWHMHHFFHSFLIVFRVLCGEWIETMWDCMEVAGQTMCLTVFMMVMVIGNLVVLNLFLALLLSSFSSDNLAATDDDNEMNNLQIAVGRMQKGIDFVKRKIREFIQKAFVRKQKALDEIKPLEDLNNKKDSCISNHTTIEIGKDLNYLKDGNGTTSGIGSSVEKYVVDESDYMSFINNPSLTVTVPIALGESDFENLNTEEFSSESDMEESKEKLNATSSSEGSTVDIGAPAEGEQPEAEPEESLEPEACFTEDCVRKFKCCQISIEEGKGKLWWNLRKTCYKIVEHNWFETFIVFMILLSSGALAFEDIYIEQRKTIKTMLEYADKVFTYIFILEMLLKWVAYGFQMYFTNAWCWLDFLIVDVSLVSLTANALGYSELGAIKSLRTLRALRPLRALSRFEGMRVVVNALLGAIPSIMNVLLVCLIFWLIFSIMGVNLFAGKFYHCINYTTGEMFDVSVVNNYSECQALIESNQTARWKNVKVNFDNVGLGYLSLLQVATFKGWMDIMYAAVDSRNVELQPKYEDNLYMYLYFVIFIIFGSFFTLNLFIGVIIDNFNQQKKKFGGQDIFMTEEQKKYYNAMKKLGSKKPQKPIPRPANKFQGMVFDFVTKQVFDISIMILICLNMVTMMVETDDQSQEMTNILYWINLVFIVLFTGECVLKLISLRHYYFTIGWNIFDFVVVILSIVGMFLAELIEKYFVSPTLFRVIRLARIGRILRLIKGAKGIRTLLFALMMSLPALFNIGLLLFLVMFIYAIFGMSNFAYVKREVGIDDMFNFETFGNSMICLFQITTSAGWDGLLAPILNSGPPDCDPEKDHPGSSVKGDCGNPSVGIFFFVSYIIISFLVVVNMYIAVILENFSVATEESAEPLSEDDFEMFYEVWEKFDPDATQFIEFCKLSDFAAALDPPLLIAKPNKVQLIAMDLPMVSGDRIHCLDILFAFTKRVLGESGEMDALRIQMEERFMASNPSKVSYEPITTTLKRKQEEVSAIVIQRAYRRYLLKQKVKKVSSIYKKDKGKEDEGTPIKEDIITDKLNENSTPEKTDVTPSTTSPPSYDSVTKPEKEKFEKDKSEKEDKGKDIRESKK

The compounds below were run against Sodium channel protein type 2 subunit alpha (Rattus norvegicus, UniProt P04775). Settings: oocyte.

**Q.** With CCCCCCCCN1CC(=O)N[C@@H](Cc2c[nH]c3ccccc23)C(=O)N[C@H]2CSSC[C@H](N)C(=O)N[C@H]3CSSC[C@H](NC(=O)[C@H](CCCNC(=N)N)NC(=O)[C@H](CO)NC(=O)[C@H](Cc4cnc[nH]4)NC(=O)[C@H](CC(=O)O)NC(=O)[C@H](CCCNC(=N)N)NC2=O)C(=O)N[C@H](C(N)=O)CSSC[C@H](NC(=O)[C@H](CC(N)=O)NC3=O)C(=O)N[C@@H](CO)C(=O)N[C@@H](CO)C1=O as the compound, how does the pKd read?
**A.** 6.40

**Q.** How did the pKd turn out when CCCCN1CC(=O)N[C@@H](Cc2c[nH]c3ccccc23)C(=O)N[C@H]2CSSC[C@H](N)C(=O)N[C@H]3CSSC[C@H](NC(=O)[C@H](CCCNC(=N)N)NC(=O)[C@H](CO)NC(=O)[C@H](Cc4cnc[nH]4)NC(=O)[C@H](CC(=O)O)NC(=O)[C@H](CCCNC(=N)N)NC2=O)C(=O)N[C@H](C(N)=O)CSSC[C@H](NC(=O)[C@H](CC(N)=O)NC3=O)C(=O)N[C@@H](CO)C(=O)N[C@@H](CO)C1=O was run?
**A.** 6.54

**Q.** With CCCCCCCCN1CC(=O)N[C@@H](Cc2c[nH]c3ccccc23)C(=O)N[C@@H](C)C(=O)N[C@@H](CCCNC(=N)N)C(=O)N[C@@H](CC(=O)O)C(=O)N[C@@H](Cc2cnc[nH]2)C(=O)N[C@@H](CO)C(=O)N[C@@H](CCCNC(=N)N)C(=O)NC2C[Se][Se]CC(NC(=O)[C@H](C)N)C(=O)N[C@@H](CC(N)=O)C(=O)N[C@@H](CSSC[C@@H](C(N)=O)NC2=O)C(=O)N[C@@H](CO)C(=O)N[C@@H](CO)C1=O (stereo partly specified) as the compound, how does the pKd read?
**A.** 6.30

**Q.** How did the pKd turn out when CN1CC(=O)N[C@@H](Cc2c[nH]c3ccccc23)C(=O)N[C@H]2CSSC[C@H](N)C(=O)N[C@H]3CSSC[C@H](NC(=O)[C@H](CCCNC(=N)N)NC(=O)[C@H](CO)NC(=O)[C@H](Cc4cnc[nH]4)NC(=O)[C@H](CC(=O)O)NC(=O)[C@H](CCCNC(=N)N)NC2=O)C(=O)N[C@H](C(N)=O)CSSC[C@H](NC(=O)[C@H](CC(N)=O)NC3=O)C(=O)N[C@@H](CO)C(=O)N[C@@H](CO)C1=O was run?
**A.** 7.26

**Q.** C[C@H](N)C(=O)NC1C[Se][Se]CC2NC(=O)[C@H](CCCNC(=N)N)NC(=O)[C@H](CO)NC(=O)[C@H](Cc3cnc[nH]3)NC(=O)[C@H](CC(=O)O)NC(=O)[C@H](CCCNC(=N)N)NC(=O)[C@H](C)NC(=O)[C@H](Cc3c[nH]c4ccccc34)NC(=O)CN(C)C(=O)[C@H](CO)NC(=O)[C@H](CO)NC(=O)[C@H](CSSC[C@@H](C(N)=O)NC2=O)NC(=O)[C@H](CC(N)=O)NC1=O (stereo partly specified) was tested. Which pKd did it give?
**A.** 6.00

**Q.** With CCCCN1CC(=O)N[C@@H](Cc2c[nH]c3ccccc23)C(=O)N[C@@H](C)C(=O)N[C@@H](CCCNC(=N)N)C(=O)N[C@@H](CC(=O)O)C(=O)N[C@@H](Cc2cnc[nH]2)C(=O)N[C@@H](CO)C(=O)N[C@@H](CCCNC(=N)N)C(=O)NC2C[Se][Se]CC(NC(=O)[C@H](C)N)C(=O)N[C@@H](CC(N)=O)C(=O)N[C@@H](CSSC[C@@H](C(N)=O)NC2=O)C(=O)N[C@@H](CO)C(=O)N[C@@H](CO)C1=O (stereo partly specified) as the compound, how does the pKd read?
**A.** 5.85
